Anti-infective test results gathered from many reports (values: NIAID ChemDB through PubChem).

Common to all: whole-cell or culture tests; agent: HIV-1

Conditions beyond the fields shown may differ between rows. ECn: concentration that inhibits the pathogen or its effect by n%. An empty or dashed field is not shown.

smiles,setting,changes,strain,endpoint,cell line,read by,result
CCCNc1nc(N)nc2c1ncn2[C@H]1C[C@H](N=[N+]=[N-])[C@@H](CO)O1,,,IIIB,EC50,MT-4,cytopathic effect,23 µM
Cc1cn([C@H]2C[C@H](N=[N+]=[N-])[C@@H](CO)O2)c(=O)[nH]c1=O,,,NL4-3,EC50,MT-4,MTT,0.056 µM
C#Cc1ccc(Nc2nccc(Oc3c(C)cc(-c4cn(Cc5cccc([N+](=O)[O-])c5)nn4)cc3C)n2)cc1,,Y188L,IIIB,EC50,MT-4,MTT,4.54 µM
CCN1c2ncccc2N(C)C(=S)c2oc3cccnc3c21,,,RF,EC50,MT-4,cytopathic effect,0.2 µM
N#Cc1nc(N)nc2c1ncn2[C@H]1C[C@H](N=[N+]=[N-])[C@@H](CO)O1,,,IIIB,EC50,MT-4,cytopathic effect,>200 µM
C#Cc1ccc(Nc2nccc(Oc3c(C)cc(-c4cn(CC(=O)Nc5ccc(Br)cc5)nn4)cc3C)n2)cc1,,F227L and V106A,IIIB,EC50,MT-4,MTT,>19.78 µM
CCCCCCCCCCCCCCC[C@@H](O)[C@@H](N)CO,,,HXB2,EC90,TZM-bl,luciferase,>6 µM
CC(=O)c1ccc(C)cc1NC(C(N)=O)c1c(Cl)cccc1Cl,,,IIIB,EC50,PBMC,cytopathic effect / MTT,0.122 µM
NS(=O)(=O)c1ccc(Oc2ccc(NC(=O)N[C@@H]3[C@@H]4CCc5c(F)ccc(F)c5[C@@H]43)cc2)cc1,,K103N,IIIB,EC50,MT-4 cells,ELISA,0.0032 µM
CN1CC[C@@H](c2ccccc2)[C@H](COc2ccc3c(c2)OCCO3)C1,,,IIIB,EC50,MOLT-3,p24,>0.8 µg/mL
Cc1ccnc2c1NC(=O)c1cccnc1N2C1CC1,,RT-K103N,NNRTI-resistant (RT K103N),EC50,MAGI,β-galactosidase,5.8 µM
CC(C)c1c(COC(N)=O)cn(Cc2ccncc2)c1Sc1cc(Cl)cc(Cl)c1,,RT-Y181C,,EC50,C8166,p24,<20 µM
[N-]=[N+]=N[C@H]1C[C@H](n2cnc3c(NC4CCC4)nc(N)nc32)O[C@@H]1CO,,,IIIB,EC50,MT-4,cytopathic effect,14 µM
OCCN1CCN(CC/C=C2/c3ccccc3Sc3ccc(C(F)(F)F)cc32)CC1,,,IIIB,EC50,MOLT-3,p24,>2 µg/mL
[N-]=[N+]=N[C@H]1C[C@H](n2cnc3c(NCCc4ccccc4)nc(N)nc32)O[C@@H]1CO,,,IIIB,EC50,MT-4,cytopathic effect,21 µM
CNCCC=C1c2ccccc2CCc2ccccc21,,,IIIB,EC50,MOLT-3,RT activity,>1 µg/mL
CCc1cc(NCc2nc3c(C)ccc(C)c3o2)c(=O)[nH]c1C,,,IIIB,EC50,H9,p24,<0.15 µM
Cc1cn([C@H]2CC[C@@H](CO)O2)c(=O)[nH]c1=O,,,BRU,EC50,CEM,p24,29 µM
[N-]=[N+]=N[C@H]1C[C@H](n2cnc3c(Nc4ccccc4)nc(N)nc32)O[C@@H]1CO,,,IIIB,EC50,MT-4,cytopathic effect,>200 µM
Cc1ccnc2c1NC(=O)c1cccnc1N2C1CC1,,RT-V106A,,EC50,MT-4,cytopathic effect / MTT,5.01 µM
CCCN(C)C(=O)Oc1nsnc1-c1c(Cl)ccc(N)c1Cl,,,clinical isolate A012D AZT-resistant,EC50,MT-4,p24,0.0089 µM
c1cc(CN2CCCNCCNCCCNCC2)ccc1CN1CCCNCCNCCCNCC1,,,CM7 CLADE C R5,EC50,PBMC,p24,>0.5 µM
C#Cc1ccc(Nc2nccc(Oc3c(C)cc(-c4cn(CC(=O)OC)nn4)cc3C)n2)cc1,,L100I,IIIB,EC50,MT-4,MTT,>10.35 µM
[N-]=[N+]=N[C@H]1C[C@H](n2cnc3c(OC4CCC4)nc(N)nc32)O[C@@H]1CO,,,IIIB,EC50,MT-4,cytopathic effect,5 µM
CCN1c2ncccc2N(C)C(=O)c2oc3ccccc3c21,,,IIIB,EC50,C8166,cytopathic effect,1.6 µM
Cc1ccnc2c1NC(=O)c1cccnc1N2C1CC1,,,RES056,EC50,MT-4,MTT,>15.02 µM
COc1ccc(OC[C@@H]2CN(C)CC[C@H]2c2ccccc2)cc1,,,IIIB,EC50,MOLT-3,p24,~10 µg/mL
O=C(O)c1cc[c]([Sb](=[O])([OH])[OH])cc1[N+](=O)[O-],,,NL4-3,EC90,MAGI,β-galactosidase,9.07 µM
CCN1c2cc(C)c(C)cc2N(C)S(=O)(=O)c2cccnc21,,,HE,EC50,MT-4,cytopathic effect,0.3 µM
Cc1cn([C@H]2C[C@H](N=[N+]=[N-])[C@@H](CO)O2)c(=O)[nH]c1=O,,,IIIB,EC50,MT-4,cytopathic effect / MTT,0.0019 µg/mL
CCCCCN1CC[C@H](c2ccc(F)cc2)[C@@H](COc2ccc3c(c2)OCCO3)C1,,,IIIB,EC50,MOLT-3,syncytia,>4 µg/mL
CC(C)(C)NC(=O)[C@@H]1C[C@@H]2CCCC[C@@H]2CN1C[C@@H](O)[C@H](Cc1ccccc1)NC(=O)[C@H](CC(N)=O)NC(=O)c1ccc2ccccc2n1,,,IIIB,EC50,C8166,cytopathic effect,0.0016 µM
C#Cc1ccc(Nc2nccc(Oc3c(C)cc(-c4cn(CC(=O)Nc5ccc(F)cc5)nn4)cc3C)n2)cc1,,F227L and V106A,IIIB,EC50,MT-4,MTT,>1.41 µM
CC(C)c1c(COC(N)=O)cn(Cc2ccncc2)c1Sc1ccccc1,,RT-Y181C,,EC50,C8166,p24,>100 µM
C#Cc1ccc(Nc2nccc(Oc3c(C)cc(-c4cn(CC(=O)Nc5ccc(S(C)(=O)=O)cc5)nn4)cc3C)n2)cc1,,E138K,IIIB,EC50,MT-4,MTT,1.23 µM
CCc1cc(NCc2nc3c(Cl)ccc(Cl)c3o2)c(=O)[nH]c1C,clinical isolate,,A018A/H112-2,EC95,CEM,p24,0.25 µM
C=C1[C@H](CO)[C@@H](O)C[C@@H]1n1cnc2c(=O)[nH]c(N)nc21,,Y181C,IIIB,EC50,MT-4,MTT,0.012 µM
CCCCCCCCCCCCCC(=O)OC[C@H](COP(=O)(O)OP(=O)(O)OC[C@@H]1CC[C@H](n2cc(C)c(=O)[nH]c2=O)O1)OC(=O)CCCCCCCCCCCCC,,,BRU,EC50,CEM/TK-,p24,10.1 µM
CC(C)c1c(CO)cn(Cc2ccncc2)c1Sc1ccccc1,,RT-K103N,,EC90,,cytopathic effect / MTT,9.6 µM
CCN(C)c1nc(N)nc2c1ncn2[C@H]1C[C@H](N=[N+]=[N-])[C@@H](CO)O1,,,IIIB,EC50,MT-4,cytopathic effect,11 µM
OCCN1CCN(CC/C=C2\c3ccccc3Sc3ccc(C(F)(F)F)cc32)CC1,,,IIIB,EC50,MOLT-3,p24,<10 µg/mL
[N-]=[N+]=N[C@H]1C[C@H](n2cnc3c(=S)nc(N)[nH]c32)O[C@@H]1CO,,,IIIB,EC50,MT-4,cytopathic effect,>32 µM
C#Cc1ccc(Nc2nccc(Oc3c(C)cc(-c4cn(CCC(=O)OC)nn4)cc3C)n2)cc1,,,IIIB,EC50,MT-4,MTT,0.27 µM

Repeating the final 4 entries:

smiles,setting,changes,strain,endpoint,cell line,read by,result
CCN(C)c1nc(N)nc2c1ncn2[C@H]1C[C@H](N=[N+]=[N-])[C@@H](CO)O1,,,IIIB,EC50,MT-4,cytopathic effect,11 µM
OCCN1CCN(CC/C=C2\c3ccccc3Sc3ccc(C(F)(F)F)cc32)CC1,,,IIIB,EC50,MOLT-3,p24,<10 µg/mL
[N-]=[N+]=N[C@H]1C[C@H](n2cnc3c(=S)nc(N)[nH]c32)O[C@@H]1CO,,,IIIB,EC50,MT-4,cytopathic effect,>32 µM
C#Cc1ccc(Nc2nccc(Oc3c(C)cc(-c4cn(CCC(=O)OC)nn4)cc3C)n2)cc1,,,IIIB,EC50,MT-4,MTT,0.27 µM